A mixed list of measured activities; the numbers were collected in NIAID ChemDB.

Common to all: tests in culture; organism: Hepatitis C virus; read by: replicon; measure: EC50

Rows are shuffled and stem from different studies. Blank or dashed fields: not listed here. ECn is the concentration giving n% inhibition of infection, replication or growth. Two numbers with a dash give a range or band.

smiles | strain or isolate | cell line | value
Cc1ccc(S(=O)(=O)Oc2cnccc2/C=N/NC(=O)Cc2cccc(Cl)c2)cc1 | - | Huh7 | <5 µM
CS(=O)(=O)NC(=O)c1c(-c2ccc[nH]c2=O)c2c3c(ccc2n1Cc1cc(F)ccc1F)CCC3 | - | - | 0.5–1.5 µM
CN(C)S(=O)(=O)NC(=O)c1ccc2c(C3CCCCC3)c3n(c2c1)CCN(C(=O)OC(C)(C)C)c1ccccc1-3 | - | Huh7 | 0.01–1 µM
O=C(Cc1ccccc1F)N/N=C/c1ccccc1OS(=O)(=O)c1ccc(C(F)(F)F)cc1 | - | Huh7 | <5 µM
CCOc1nc(NCc2ccc(S(N)(=O)=O)cc2)nc2ccc(-c3ccc(NC(=O)NC4CC4)cc3)nc12 | - | - | <0.1 µM
O=C(N/N=C/c1ccccc1OS(=O)(=O)c1ccc(C(F)(F)F)cc1)C1CCN(Cc2ccccc2)C1=O | - | Huh7 | >50 µM
Cc1ccc2nc(Cl)c(Cn3c(C(=O)O)c(-c4ccc[nH]c4=O)c4c5occc5c(F)cc43)cc2c1 | - | - | <0.5 µM
N#Cc1cccc(-c2ccc3nc(NCc4ccc(S(N)(=O)=O)cc4)nc(NCC(F)(F)F)c3n2)c1 | - | - | <0.1 µM
COCCN(C(=O)C1CCC(C)CC1)c1cc(-c2ccc(NC(=O)c3cscn3)cc2)sc1C(=O)O | 1a | - | <0.5 µM
CNC(=O)c1c(-c2ccc(F)cc2)oc2cc(C3CNC(=O)C3)c(OC)cc12 | - | Huh7 | <10 µM
Cc1cc(C(=O)Nc2ccc(-c3cc(N(C(=O)C4CCC(C)CC4)C(C)C)c(C(=O)O)s3)cc2)nn1C | 1b | - | <0.5 µM
O=C(O)c1ccc2c(C3CCCCC3)c3n(c2c1)CC(C(=O)N1CCOCC1)=Cc1ccccc1-3 | - | Huh7 | 0.01–1 µM
COc1cccc(CC(=O)N/N=C/c2cc(C)ccc2OS(=O)(=O)c2ccc(C)cc2)c1 | - | Huh7 | <5 µM
CNC(=O)c1c(-c2ccc(F)cc2)oc2cc(O)c(OC)cc12 | - | Huh7 | <30 µM
O=C(O)c1c(-c2ccc[nH]c2=O)c2c3occc3c(F)cc2n1Cc1ccc2nc(C(F)(F)F)[nH]c2c1 | - | - | 0.5–1.5 µM
O=C(Cc1ccccc1)N/N=C/c1ccccc1OS(=O)(=O)c1ccc(OC(F)(F)F)cc1 | - | Huh7 | <5 µM
COC(=O)C1=Cc2cc(OCc3ccccc3)ccc2-c2c(C3CCCCC3)c3ccc(C(=O)NS(=O)(=O)N(C)C)cc3n2C1 | - | Huh7 | 0.01–1 µM
CC1CCC(C(=O)N(c2cc(-c3ccc(NC(=O)c4cscn4)cc3)sc2C(=O)O)C2CCC2)CC1 | 1b | - | <0.5 µM
COC(=O)/C=C/c1ccc(NC(=O)C2(NC(=O)c3ccc4c(C5CCCCC5)c5n(c4c3)CCCc3ocnc3-5)CCCC2)cc1 | - | Huh7 | 1–10 µM
CNC(=O)c1c(-c2ccc(F)cc2)oc2cc(N(C)S(C)(=O)=O)c(OCC(=O)c3ccc(F)cc3)cc12 | - | Huh7 | <1 µM
Nc1ncc(-c2ccc3nc(NCc4ccc(S(N)(=O)=O)cc4)nc(NCC(F)(F)F)c3n2)cn1 | - | - | <0.1 µM
Cc1cc(-c2cc(N(C(=O)C3CCC(C)CC3)C(C)C)c(C(=O)O)s2)cnc1NC(=O)c1ccc(F)cc1 | 1a | - | <0.5 µM
Cc1cccc(Cn2c(C(=O)NS(=O)(=O)C(C)C)c(-c3ccc[nH]c3=O)c3c4occc4ccc32)c1F | - | - | 0.5–1.5 µM
COc1cccc(CC(=O)N/N=C/c2cc(Cl)cc(OC)c2OS(=O)(=O)c2ccc(C(F)(F)F)cc2)c1 | - | Huh7 | <5 µM
CN(C)S(=O)(=O)NC(=O)c1ccc2c(C3CCCCC3)c3n(c2c1)CC(C(=O)N1CCN(N2CCCC2)CC1)Cc1ccccc1-3 | - | Huh7 | 0.01–1 µM
CNC(=O)c1c(-c2ccc(F)cc2)oc2cc(C(O)C(C)C)c(OC(C)C)cc12 | - | Huh7 | <1 µM
CS(=O)(=O)NC(=O)c1c(-c2ccc[nH]c2=O)c2c3c(c(F)cc2n1Cc1cc2ccccc2nc1Cl)CCO3 | - | - | <0.5 µM
CNC(=O)c1c(-c2ccc(F)cc2)oc2cc(NC(=O)N3CCNCC3)c(OC(C)C)cc12 | - | Huh7 | <10 µM
NC(=O)c1ccc(F)c(Cn2c(C(=O)NS(=O)(=O)C3CC3)c(-c3ccc[nH]c3=O)c3c4occc4c(F)cc32)c1 | - | - | <0.5 µM
O=C(Cc1cc(F)cc(C(F)(F)F)c1)N/N=C/c1ccccc1OS(=O)(=O)c1ccc(C(F)(F)F)cc1 | - | Huh7 | <5 µM
CCOc1nc(NCc2ccc(F)cc2)nc2ccc(-c3ccc(C(=O)NC(C)(C)CO)cc3)nc12 | - | - | <0.1 µM
COc1ccc2c(c1)C=C(C(=O)N1CCOCC1)Cn1c-2c(C2CCCCC2)c2ccc(C(=O)O)cc21 | - | Huh7 | 0.01–1 µM
O=C(Nc1ccc(-c2cc(N(CC3CC3)C(=O)C3CCC(C(F)(F)F)CC3)c(C(=O)O)s2)cc1)c1cscn1 | 1b | - | <0.5 µM
CNC(=O)c1c(-c2ccc(F)cc2)oc2cc(N(C)S(C)(=O)=O)c(O)cc12 | - | Huh7 | <10 µM
C[C@H](N)C(=O)Nc1ccc(-c2ccc3nc(NCc4ccc(S(N)(=O)=O)cc4)nc(NCC(F)(F)F)c3n2)cc1 | - | - | <0.1 µM
NC(=O)COc1ccc2c(c1)S(=O)(=O)N=C(c1c(O)c3cc(F)ccc3n(CCC3CC3)c1=O)N2 | 1b 45970 | - | 0.045 µM
O=C(O)c1ccc2c(C3CCCCC3)c3n(c2c1)CCCc1[nH]cnc1-3 | - | Huh7 | >10 µM
CCOc1nc(NCc2ccc(S(N)(=O)=O)cc2)nc2ccc(-c3ccc(C(=O)NC4CC4)cc3)nc12 | - | - | <0.1 µM
Cc1coc2c1ccc1c2c(-c2ccc[nH]c2=O)c(C(=O)O)n1Cc1cc(F)ccc1F | - | - | >1.5 µM
Cc1nocc1C(=O)Nc1ccc(-c2cc(N(C(=O)C3CCC(C)CC3)C(C)C)c(C(=O)O)s2)cc1 | 1a | - | <0.5 µM
CS(=O)(=O)NC(=O)c1c(-c2ccc[nH]c2=O)c2c3occc3ccc2n1Cc1ccc(F)cc1F | - | - | <0.5 µM
CNC(=O)c1c(-c2ccc(F)cc2)oc2cc(N(C)S(C)(=O)=O)c(OCc3nnnn3C)cc12 | - | Huh7 | <1 µM
CC1CCC(C(=O)N(CC2CC2)c2cc(-c3ccc(NC(=O)c4cn(C)cn4)cc3)sc2C(=O)O)CC1 | 1b | - | <0.5 µM
CC(C)(C)c1ccc(S(=O)(=O)Oc2ccccc2/C=N/NC(=O)Cc2ccccc2)cc1 | - | Huh7 | <5 µM
CC1CCC(C(=O)N(c2cc(-c3ccc(NC(=O)c4cn(C)cn4)cc3)sc2C(=O)O)C2CCC2)CC1 | 1a | - | <0.5 µM
Cn1cc(-c2ccc3nc(NCc4ccc(S(N)(=O)=O)cc4)nc(NCC(F)(F)F)c3n2)cn1 | - | - | <0.1 µM
COc1cccc(CC(=O)N/N=C/c2ccccc2OS(=O)(=O)c2ccc(Br)s2)c1 | - | Huh7 | <5 µM
CC(C)C(=O)Nc1ccc(-c2ccc3nc(N)nc(NCCS(C)(=O)=O)c3n2)cc1 | - | Huh7 | <0.3 µM
Cc1ccncc1C(=O)Nc1ccc(-c2cc(N(C(=O)C3CCC(C)CC3)C(C)C)c(C(=O)O)s2)cc1 | 1b | - | <0.5 µM
NC(=O)Nc1ccc(-c2ccc3nc(NCc4ccc(S(N)(=O)=O)cc4)nc(C4CC4)c3n2)cc1 | - | - | <0.1 µM
CSc1ccc2cc(Cn3c(C(=O)O)c(-c4ccc[nH]c4=O)c4c5occc5c(F)cc43)c(Cl)nc2c1 | - | - | <0.5 µM

Again, the opening 5 rows:

smiles	strain or isolate	cell line	value
Cc1ccc(S(=O)(=O)Oc2cnccc2/C=N/NC(=O)Cc2cccc(Cl)c2)cc1	-	Huh7	<5 µM
CS(=O)(=O)NC(=O)c1c(-c2ccc[nH]c2=O)c2c3c(ccc2n1Cc1cc(F)ccc1F)CCC3	-	-	0.5–1.5 µM
CN(C)S(=O)(=O)NC(=O)c1ccc2c(C3CCCCC3)c3n(c2c1)CCN(C(=O)OC(C)(C)C)c1ccccc1-3	-	Huh7	0.01–1 µM
O=C(Cc1ccccc1F)N/N=C/c1ccccc1OS(=O)(=O)c1ccc(C(F)(F)F)cc1	-	Huh7	<5 µM
CCOc1nc(NCc2ccc(S(N)(=O)=O)cc2)nc2ccc(-c3ccc(NC(=O)NC4CC4)cc3)nc12	-	-	<0.1 µM